# pEC50: −log10 of the molar value.
# Tested on: HCV 2a J6/JFH-1
# Experiment: HCV infectivity assay by real-time RT-PCR of HCV RNA (EC50 at T1 and T2)
# Settings: read-out: HCV 2A T1 - EC50; early stage (T1); Table 3
# Protocol: In this assay HCV infectivity is measured using real-time RT-PCR to monitor changes in expression of HCV 2a J6/JFH-1 RNA. Cells are incubated with test compound in the presence of HCV, followed by isolation of RNA, conversion to cDNA, and Taqman-based QPCR. As designed, a compound that inhibits HCV infectivity will reduce HCV RNA expression, leading to decreased production of the PCR amplicon, thereby reducing fluorescence, and increasing Ct.
# Huh-7.5 cells were plated the day before the assay. After allowing the cells to adhere overnight, test compound was prepared in HCV supernatant by making 1:10 serial dilutions from 100 micromolar down to 0.001 micromolar. […] Quantitative real-time polymerase chain reaction (PCR) was performed in triplicate using LightCycler RNA Amplification Kit HybProbe master mix (Roche) with Taqman MGB Probe 6FAM-[…]-MGBNFQ on a model LightCycler480 real time PCR system (Roche). Data are expressed as the mean fold change plus or minus SE of 3 replicates normalized to 100 ug total RNA. […]
# The compounds were then studied in the same Huh7-5 cells infected with HCV 2a strain J6/JFH-1 (Kota, et al., ASSAY Drug Dev. Tech (2009) 8: 96). […] HCV RNA detected in T1 results from actual viral infection and replication. HCV RNA detected in T2 results from infectious virus secreted in T1 and replicated in freshly infected naïve cells. […]
structure (smiles),measurement,value
COC(=O)C1=C(C(=O)OC)C2N(CCOCCN3c4ccccc4[C@]45CCC(=O)N(Cc6ccccc6)C4=NC(C(=O)OC)=C(C(=O)OC)C35)c3ccccc3[C@@]23CCC(=O)N(Cc2ccccc2)C3=N1 (stereo partly shown),pEC50,6.32
